# Experimental data: PMC9371974 (Nature Structural & Molecular Biology, 2022)
# The chains behind the UniProt entries cited, without tags or fusion partners. Residues count along the entry.
# UniProt P04925, 23-230: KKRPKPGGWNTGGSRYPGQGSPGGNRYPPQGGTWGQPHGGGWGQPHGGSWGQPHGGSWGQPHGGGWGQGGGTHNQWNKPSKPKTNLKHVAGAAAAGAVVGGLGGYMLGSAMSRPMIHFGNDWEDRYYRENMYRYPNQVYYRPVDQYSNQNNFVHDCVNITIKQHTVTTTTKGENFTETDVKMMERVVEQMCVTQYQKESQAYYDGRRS
# UniProt P04925, 23-110: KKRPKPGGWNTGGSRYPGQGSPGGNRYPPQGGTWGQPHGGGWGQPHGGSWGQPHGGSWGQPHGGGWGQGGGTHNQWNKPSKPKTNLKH
# UniProt P04925, 23-231: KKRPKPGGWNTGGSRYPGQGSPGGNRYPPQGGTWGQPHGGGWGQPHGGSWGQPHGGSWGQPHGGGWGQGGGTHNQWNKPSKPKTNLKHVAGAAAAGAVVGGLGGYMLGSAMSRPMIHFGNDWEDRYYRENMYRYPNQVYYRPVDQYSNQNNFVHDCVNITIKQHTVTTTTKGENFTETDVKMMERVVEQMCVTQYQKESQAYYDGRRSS
# B1: POM1 single-chain variable fragment (scFv) (scFv, V domains shown)
# VH: QVQLQQSGTELVMPGASVKMSCKASGYTFTDYWMHWVKQRPGQGLEWIGSIDPSDSYTSHNEKFKGKATLTVDESSSTAYMQLSSLTSEDSAVYFCSRSGYGYYAMEYWGQGTSVTVSS
# VL: DIVLTQSPAILSVSPGERVSFSCRASQNIGTSIHWYQQRTNESPRLIIKYASESISGIPSRFSGSGSGTDFTLSINSVESEDIADYYCQQSNTWPYTFGGGTKLELK
# notes: also called scPOM1; source: POM1 pET-22b(+) expression plasmid
# B2: holo-POM1 (POM1 as IgG holoantibody) (antibody, V domains shown)
# VH: QVQLQQSGTELVMPGASVKMSCKASGYTFTDYWMHWVKQRPGQGLEWIGSIDPSDSYTSHNEKFKGKATLTVDESSSTAYMQLSSLTSEDSAVYFCSRSGYGYYAMEYWGQGTSVTVSS
# VL: DIVLTQSPAILSVSPGERVSFSCRASQNIGTSIHWYQQRTNESPRLIIKYASESISGIPSRFSGSGSGTDFTLSINSVESEDIADYYCQQSNTWPYTFGGGTKLELK
# notes: also called POM1 IgG
# B3: POM1 (anti-PrP^C antibody; format not stated for the experiment) (antibody, V domains shown)
# VH: QVQLQQSGTELVMPGASVKMSCKASGYTFTDYWMHWVKQRPGQGLEWIGSIDPSDSYTSHNEKFKGKATLTVDESSSTAYMQLSSLTSEDSAVYFCSRSGYGYYAMEYWGQGTSVTVSS
# VL: DIVLTQSPAILSVSPGERVSFSCRASQNIGTSIHWYQQRTNESPRLIIKYASESISGIPSRFSGSGSGTDFTLSINSVESEDIADYYCQQSNTWPYTFGGGTKLELK
# notes: also called scPOM1; wild-type POM1
# B4: POM1 single-chain variable fragment (wild type) (scFv, V domains shown)
# VH: QVQLQQSGTELVMPGASVKMSCKASGYTFTDYWMHWVKQRPGQGLEWIGSIDPSDSYTSHNEKFKGKATLTVDESSSTAYMQLSSLTSEDSAVYFCSRSGYGYYAMEYWGQGTSVTVSS
# VL: DIVLTQSPAILSVSPGERVSFSCRASQNIGTSIHWYQQRTNESPRLIIKYASESISGIPSRFSGSGSGTDFTLSINSVESEDIADYYCQQSNTWPYTFGGGTKLELK
# notes: also called wt; scPOM1; source: POM1 pET-22b(+) expression plasmid
# How the values were obtained:
# Settings in all cases: both partners purified
# [1] = molecular target: recombinant mouse prion protein immobilised for SPR (mPrP) (Mus musculus, UniProt P04925); assay: SPR
# [2] = molecular target: recombinant mouse PrP flexible tail fragment (rmPrP23-110) (Mus musculus, UniProt P04925); assay: ELISA
# [3] = molecular target: T1, recombinant wild-type murine PrP (rmPrP) immobilised for SPR (Mus musculus, UniProt P04925); assay: SPR
# T1 construct: source: recombinant
# [4] = molecular target: mPrP immobilized on the SPR sensor chip (rmPrP) (Mus musculus, UniProt P04925); assay: SPR
# [5] = molecular target: full-length, recombinant mouse prion protein (rmPrP23-231) (Mus musculus, UniProt P04925); assay: FRET or BRET
binder,measurement,setting,value
B1,Kd,[1],4.8 nM
B2,binding result,[2],no binding
B3,Kd,[3],0.25 nM
B4,Kd,[4],5.08 nM
same,Kd,[5],2.8 nM
